The experiment deals with γ-tubulin small complex (γ-TuSC) from C. albicans: His-Spc97, His-Spc98, γ-tubulin (Tub4) (C. albicans) (UniProt Q59PZ2). As to the kind of experiment: MST. The following applies: domain or fragment.

The term Kd denotes a measure of binding affinity in units of concentration. The low end stands for tighter binding, the high end for weaker binding. “GST-CM1^231-268,3R (GST-Spc72^231-268 L243R/I247R/L254R) (from UniProt Q5AGV5 231-268)”: the Kd was found to be 418 nM. This counts as sub-micromolar.

Source of the values: article PMC11701102, “Structural insights into the interplay between microtubule polymerases, γ-tubulin complexes and their receptors” (Nature Communications, 2025).
